Pooled drug test results. Numbers come from NIAID ChemDB, via PubChem.

All rows: host cell toxicity; cells: MT-4; read-out: CC50

a–b is a range or a potency band.

structure | method | result
Cc1cccc(S(=O)(=O)c2c(C(=O)NNCCO)[nH]c3ccc(Cl)cc23)c1 | MTT | >100 µM
Cc1cn([C@H]2C[C@H](F)[C@@H](CO)O2)c(=O)[nH]c1=O |  | 240 µM
CC1CCCCN1CCCNCCc1ccc(CCNCCCN2CCCCC2C)cc1 |  | 52 µg/mL
CCCN(C)c1nc([C@@H](C)c2c(F)cccc2F)c(C)c(=O)[nH]1 | MTT | >78 µM
CCc1nc2ccccn2c1C(=O)c1ccc(O)cc1 | MTT | 80 µM
CCc1c(Cc2cccc3ccccc23)nc(N)[nH]c1=O | MTT | 91.82 µM
CC1c2nnc(-c3ccncc3)n2-c2ccccc2-n2c(-c3ccncc3)nnc21 | MTT | >200 µM
Cn1ncc2c1S(=O)(=O)N(CCc1ccccc1Br)C(=O)N2CCc1ccccc1Br | MTT | >231.5 µM
CCc1c(Cc2c(Cl)cccc2Cl)nc(SC/C=C/c2ccc([N+](=O)[O-])cc2)[nH]c1=O |  | 32.14 µM
CN1c2ccccc2N2C(=O)CN(CCN3CCCCC3)C(=O)C2c2cccn21 |  | >300 µM
CCc1c(C(C)c2c(F)cccc2F)nc(SC/C=C/c2ccc(C#N)cc2)[nH]c1=O |  | 27.23 µM
Nc1ncnc2c1ncn2CCOCP(=O)(O)O |  | 144 µM
CC(=O)c1cn(COCCO)c2ccccc12 |  | >200 µM
Cc1cn([C@H]2C[C@H](N=[N+]=[N-])[C@@H](COC(=O)CCCCC(=O)N[C@H]3CC[C@]4(C)[C@H]5CC=C6[C@@H]7CC(C)(C)CC[C@]7(C(=O)O)CC[C@@]6(C)[C@]5(C)CC[C@H]4C3(C)C)O2)c(=O)[nH]c1=O | MTT | 230.7 µg/mL
Cc1cn([C@H]2C[C@H](N=[N+]=[N-])[C@@H](CO)O2)c(=O)[nH]c1=O | MTT | >1 µg/mL
Nc1nc(Cl)nc2c1ncn2[C@@H]1C=C[C@H](CO)O1 |  | >10 µM
ClC1c2nnc(-c3ccccc3)n2-c2ccccc2-n2c(-c3ccccc3)nnc21 | MTT | 3 µM
Cc1ccnc2c1NC(=O)c1cccnc1N2C1CC1 | MTT | 7.5 µM
Cc1cc(C)cc(S(=O)(=O)c2c(C(=O)NC(C)c3cccc(O)c3)[nH]c3ccc(Cl)cc23)c1 | MTT | >16 µM
CC(C)CNC(=O)C(F)(F)C(=O)[C@H](Cc1ccc(OCc2ccccc2)cc1)NC(=O)[C@@H](NC(=O)OCc1ccccc1)C(C)C |  | 6 µM
CCCCNC(=S)N/N=C(\C)c1nc2ccc(Cl)cc2[nH]1 | MTT | 1.06 µg/mL
O=c1[nH]c(=S)[nH]c2nc(-c3ccccc3)c(-c3ccccc3)nc12 | MTT | 1.77 µg/mL
CC(=O)OCCOCn1c(-c2ccccn2)c(Br)c2ccccc21 |  | ≥200 µM
Cn1ncc2c1S(=O)(=O)N(CCc1ccc(Cl)cc1)C(=O)N2CCc1ccc(Cl)cc1 | MTT | 6.7 µM
Cc1cn([C@H]2C[C@H](F)[C@@H](CO)O2)c(=O)[nH]c1=O |  | 0.197 µM
Cc1nnc2n1-c1ccccc1-n1c(C)nnc1C2C | MTT | >200 µM
CCOCn1c(Sc2ccccc2)c(CC)c(=O)[nH]c1=S |  | 33 µM
O=c1[nH]cnc2c1ncn2[C@H]1CC[C@@H](CO)O1 |  | >500 µM
CCOCn1c(Sc2ccccc2)c(CC)c(=O)[nH]c1=O |  | 146 µM
COc1cc(Oc2c(C)cc(C)cc2C)cc(Nc2ccc(C#N)cc2)n1 | MTT | 29 µM
CCCNc1nc(Cc2cccc3ccccc23)c(C)c(=O)[nH]1 | MTT | 44.02 µM
CC1CCN(CCCN2c3ccccc3NC(c3ccccc3)c3cccn32)CC1 |  | 47 µM
Cc1cn([C@H]2C[C@H](N=[N+]=[N-])[C@@H](CO)O2)c(=O)[nH]c1=O |  | 10.8 µM
Cc1cn([C@H]2C[C@H](N=[N+]=[N-])[C@@H](CO)O2)c(=O)[nH]c1=O |  | 10.8 µM
COc1ccc(C#CCSc2nc(Cc3c(Cl)cccc3Cl)c(C)c(=O)[nH]2)cc1 |  | >56.18 µM
CC(C)(C)OC(=O)N[C@@H](Cc1ccccc1)C[C@H](O)[C@H](Cc1ccccc1)NC(=O)c1cc(N)ccc1Cl |  | >100 µM
COC[C@@H](c1ccc(C(F)(F)F)cc1)N1CCN(C2(C)CCN(C(=O)c3c(C)ncnc3C)CC2)C[C@@H]1C | MTT | >5 µM
Cc1c(Cc2ccc(C#N)cc2)nc(SCc2ccc(C#N)cc2)[nH]c1=O |  | >67.2 µM
Cc1cn([C@H]2C[C@H](N=[N+]=[N-])[C@@H](CO)O2)c(=O)[nH]c1=O | MTT | 10 µg/mL
Cc1ccnc2c1NC(=O)c1cccnc1N2C1CC1 |  | >200 µM
CCc1cn([C@H]2CC[C@@H](CO)O2)c(=O)[nH]c1=O |  | >625 µM
Cc1nc(N2C(=O)CSC2c2c(F)cccc2Cl)ccc1Br |  | 30.12 µM
Nc1ccn([C@H]2CC[C@@H](CO)O2)c(=O)n1 | MTT | >20 µg/mL
c1cc(CCNCCN2CCCC2)ccc1CCNCCN1CCCC1 |  | 70 µg/mL
Cc1cn([C@H]2C[C@H](N=[N+]=[N-])[C@@H](CO)O2)c(=O)[nH]c1=O |  | >20 µM
CCc1c(Cc2cccc3ccccc23)nc(Nc2ccc(Cl)cc2)[nH]c1=O | MTT | ≥152.1 µM
COC(=O)[C@H](C)NP(=O)(OC[C@@H]1C=C[C@H](n2cc(C)c(=O)[nH]c2=O)O1)Oc1ccccc1 |  | >100 µM
Cc1c(Cc2cccc3ccccc23)nc(N2CC2)[nH]c1=O | MTT | 391 µM
COC(=O)CNP(=O)(OC[C@H]1O[C@@H](n2cc(C)c(=O)[nH]c2=O)C[C@@H]1N=[N+]=[N-])Oc1ccccc1 |  | >500 µM
Cc1cn([C@H]2CC[C@@H](CO)O2)c(=O)[nH]c1=O |  | >625 µM
Cc1ccnc2c1NC(=O)c1cccnc1N2C1CC1 | MTT | >200 µM
Nc1nc(N)c2ncn(CC(CF)OCP(=O)(O)O)c2n1 |  | >1000 µM
N#C[C@]1(CO)O[C@@H](n2cnc3c(=O)[nH]cnc32)C[C@@H]1O | MTT | 23 µM
CCN(CC)c1nc(Cc2cccc3ccccc23)c(C)c(=O)[nH]1 | MTT | >388.9 µM
Nc1nc(=O)n([C@@H]2CS[C@H](CO)O2)cc1F |  | >200 µM
O=c1ccn([C@H]2C[C@H](F)[C@@H](CO)O2)c(=O)[nH]1 |  | 16 µM
CC(=O)OCCOCn1cc(C#N)c2ccccc21 |  | >200 µM
O=C(/C=C/c1ncc(-c2ccccc2)cn1)Nc1cc(-c2ccc3c(c2)CCCC3)[nH]n1 |  | >30 µM
COC(=O)N[C@H](C(=O)N[C@H](Cc1ccc(-c2ccccn2)cc1)C[C@H](O)[C@H](Cc1ccccc1)NC(=O)[C@@H](N1CCN(Cc2cccc(C(C)(C)O)n2)C1=O)C(C)(C)C)C(C)(C)C | MTT | 0.022 µM
CCc1nc2ncccn2c1C(=O)c1ccccc1 | MTT | 620 µM
CCCCc1c(Cc2cccc3ccccc23)nc(NCc2ccccc2)[nH]c1=O | MTT | 40.75 µM
O=c1ccn([C@H]2CC[C@@H](CO)O2)c(=O)[nH]1 |  | >625 µM
CC1c2nnc(-c3ccccc3)n2-c2ccc(C(F)(F)F)cc2-n2c(-c3ccccc3)nnc21 | MTT | 137 µM
C#C[C@@]1(CO)C=C[C@H](n2cc(C)c(=O)[nH]c2=O)O1 |  | >100 µM
O=C(N[C@@H](Cc1ccccc1)[C@@H](O)C[C@H](Cc1ccccc1)NC(=O)c1ccccc1)OCc1ccccc1 |  | >100 µM
N#CCN1C(=O)N(Cc2ccccc2)S(=O)(=O)c2cscc21 | MTT | 502.7 µM
O=c1[nH]c(=S)[nH]c2nccnc12 | MTT | 60.4 µg/mL
O=C1CSC(c2c(F)cccc2Cl)N1Cc1ccco1 |  | 97.7 µM
Cc1cn([C@H]2C[C@H](N=[N+]=[N-])[C@@H](CO)O2)c(=O)[nH]c1=O | MTT | >25 µg/mL
CCc1nc2sccn2c1C(=O)c1ccccc1 | MTT | 223 µM
O=c1ccn(/C=C/[C@H](O)[C@H](O)CO)c(=O)[nH]1 |  | 500 µM
COc1ccc(CSc2nc(Cc3ccc(C#N)cc3)c(C)c(=O)[nH]2)cc1 |  | >66.31 µM
Cc1cn([C@@H]2O[C@H](CO[Si](C)(C)C(C)(C)C)C3(OS(=O)(=O)C=C3N)[C@H]2O[Si](C)(C)C(C)(C)C)c(=O)n(CCOC(=O)[C@@H](N)C(C)C)c1=O |  | 20 µM
Nc1nc2c(ncn2CC(CF)OCP(=O)(O)O)c(=O)[nH]1 |  | 316 µM
Cc1cn([C@H]2C[C@@H](CO)[C@H](O)C2)c(=O)[nH]c1=O | MTT | 160 µg/mL
COC[C@H](NC(=O)C(F)(F)C(=O)[C@H](Cc1ccc(OCc2ccccc2)cc1)NC(=O)[C@@H](NC(=O)OCc1ccccc1)C(C)C)C(C)C |  | 8 µM
Nc1ncnc2c1ncn2CC(CF)OCP(=O)(O)O |  | >1000 µM
CCC(c1nc(SCc2ccc(OC)cc2)[nH]c(=O)c1C)c1c(F)cccc1F |  | >12.02 µM
O=C(/C=C/c1ncc(-c2cccnc2)cn1)Nc1cc(-c2ccc3c(c2)CCCC3)[nH]n1 |  | >30 µM
O=C1CSC(c2ccnc3ccccc23)N1Cc1ccco1 |  | 81.35 µM
Cc1cn([C@@H]2O[C@H](CO[Si](C)(C)C(C)(C)C)C3(OS(=O)(=O)C=C3N)[C@H]2O[Si](C)(C)C(C)(C)C)c(=O)n(CC(=O)N[C@H](C(=O)OCc2ccccc2)C(C)C)c1=O |  | 105 µM
CC(=O)OCCOCn1c(-c2ccccc2)c([N+](=O)[O-])c2ccccc21 |  | >200 µM
Nc1nc2c(ncn2CCOCP(=O)(O)O)c(=O)[nH]1 |  | 21–185 µM
Nc1c(-c2ccccc2)n(COCCO)c2ccccc12 |  | 105 µM
[N-]=[N+]=N[C@H]1C[C@H](n2ccc(N)nc2=O)O[C@@H]1CO |  | 160 µM
O=c1[nH]c(-c2ccc(O)c(O)c2O)nc2ccccc12 | MTT | 9.2 µM
CCN1c2ncccc2N(C)C(=S)c2sc3cccnc3c21 |  | 40 µM
c1cc(CN2CCCNCCNCCCNCC2)ccc1CN1CCCNCCNCCCNCC1 | MTT | >5 µg/mL
N#Cc1ccc(Nc2nc(Cc3c(Cl)cccc3Cl)nc(NOCC(=O)N3CCOCC3)n2)cc1 | MTT | 19.95 µM
Nc1c(-c2ccccn2)n(COCCO)c2ccccc12 |  | 50 µM
Cc1cn([C@H]2C[C@H](N=[N+]=[N-])[C@@H](CO)O2)c(=O)[nH]c1=O |  | >10 µg/mL
CN(CCO)c1ccc(-c2nc3ccccc3c(=O)[nH]2)cc1 | MTT | 42.2 µM
Cc1nc2[nH]c(=S)[nH]c(=O)c2nc1C | MTT | >125 µg/mL
Nc1nc(Cl)nc2c1ncn2[C@@H]1C[C@@H](O)[C@H](CO)O1 |  | >10 µM
Cc1cn([C@@H]2C[C@H](CO)[C@H](O)C2)c(=O)[nH]c1=O | MTT | >400 µg/mL

The first 5 rows once more:

structure,method,result
Cc1cccc(S(=O)(=O)c2c(C(=O)NNCCO)[nH]c3ccc(Cl)cc23)c1,MTT,>100 µM
Cc1cn([C@H]2C[C@H](F)[C@@H](CO)O2)c(=O)[nH]c1=O,,240 µM
CC1CCCCN1CCCNCCc1ccc(CCNCCCN2CCCCC2C)cc1,,52 µg/mL
CCCN(C)c1nc([C@@H](C)c2c(F)cccc2F)c(C)c(=O)[nH]1,MTT,>78 µM
CCc1nc2ccccn2c1C(=O)c1ccc(O)cc1,MTT,80 µM

Blank or dashed fields: not listed here. CCn: concentration that lowers growth or viability of the cells by n%. Lines come from different laboratories, so protocols vary.